# Reference: publication PMC10434001, “Glycosylated, Lipid-Binding, CDR-Like Domains of SARS-CoV-2 ORF8 Indicate Unique Sites of Immune Regulation” (Microbiology Spectrum, 2023)
# Target: SARS-CoV-2 ORF8 ([…]) with N-terminal 8×His tag and maltose binding protein (MBP) tag (SARS-CoV-2)
# Assay: SEC
substance,measurement,value
"SARS-CoV-2 ORF8 ([…]) with N-terminal 8×His tag and maltose binding protein (MBP) tag (a stretch of the chain, letters omitted) (domain or fragment; N-glycosylation (N-acetyl-beta-d-glucosamine, NAG) at N78; N-glycosylation (N-acetyl-beta-d-glucosamine, NAG) at N78; other documents disagree on this pair)",stoichiometry N,2
